Pooled drug test results. Numbers come from NIAID ChemDB, via PubChem.

Common to all: whole-cell or culture tests; species: Streptococcus pneumoniae

MIC50, MIC90 and the like: level of inhibition, or share of isolates inhibited. Lines come from different laboratories, so protocols vary.

compound | strain or isolate | endpoint | value
CC[C@H]1OC(=O)[C@H](C)C(=O)[C@H](C)[C@@H](O[C@@H]2O[C@H](C)C[C@H](N(C)C)[C@H]2O)[C@](C)(OC)C[C@@H](C)C(=O)[C@H](C)[C@H]2N(CCCCn3cnc(-c4cccnc4)c3)C(=O)O[C@]12C | 49619 (erythromycin A-susceptible) | MIC | 0.06 µg/mL
CO/N=C1\CN(c2nc3c(cc2F)c(=O)c(C(=O)O)cn3C2CC2)CC1CN | 37 isolates erythromycin-resistant | MIC90 | 0.063 µg/mL
CC[C@H]1OC(=O)[C@H](C)C(=O)[C@H](C)[C@@H](O[C@@H]2O[C@H](C)C[C@H](N(C)C)[C@H]2O)[C@@]2(C)C[C@@H](C)C(=NC(C)=O)[C@H](C)[C@@H](OC/C(=N\OCc3ccc(C(N)=O)cc3)CO2)[C@]1(C)O | 700906 (erythromycin-resistant-ERM) | MIC | 0.25 µg/mL
COc1c(N2CCNC(C)C2)ccc2c(=O)c(C(=O)O)cn(C3CC3)c12 | R6 | MIC | 4 µg/mL
CC[C@H]1OC(=O)[C@@](C)(F)C(=O)[C@H](C)[C@@H](O[C@@H]2O[C@H](C)C[C@H](N(C)C)[C@H]2O)[C@@]2(C)C[C@@H](C)C(=NC(C)=O)[C@H](C)[C@@H](OC/C(=N\OCc3ccc(-n4cccn4)nc3)CO2)[C@]1(C)O | 7701 (erythromycin A-resistant) | MIC | 0.25 µg/mL
CC[C@H]1OC(=O)[C@H](C)C(=O)[C@H](C)[C@@H](O[C@@H]2O[C@H](C)C[C@H](N(C)C)[C@H]2O)[C@@]2(C)C[C@@H](C)C(=NC(C)=O)[C@H](C)C(OC/C(=N\OCC#Cc3cccc(N)n3)CO2)[C@]1(C)O | 700906 (erythromycin-resistant-ERM) | MIC | <0.06 µg/mL
CC[C@H]1OC(=O)[C@@](C)(F)C(=O)[C@H](C)[C@@H](O[C@@H]2O[C@H](C)C[C@H](N(C)C)[C@H]2O)[C@@]2(C)C[C@@H](C)C(=O)[C@H](C)[C@@H](OC/C(=N\OCc3ccc(-n4cccn4)nc3)CO2)[C@]1(C)O | 7701 (erythromycin A-resistant) | MIC | 0.13 µg/mL
CN1CCN(c2cc3c(cc2F)c(=O)c(C(=O)O)cn3C2CC2)CC1 | D-1687 | MIC | 8 µg/mL
CC[C@H]1OC(=O)[C@H](C)C(=O)[C@H](C)[C@@H](O[C@@H]2O[C@H](C)C[C@H](N(C)C)[C@H]2O)[C@@]2(C)C[C@@H](C)C(=NC(C)=O)[C@H](C)C(OC/C(=N\OCc3ccccc3)CO2)[C@]1(C)O | 49619 (erythromycin-susceptible) | MIC | <0.06 µg/mL
CC[C@H]1OC(=O)[C@@](C)(F)C(=O)[C@H](C)[C@@H](O[C@@H]2O[C@H](C)C[C@H](N(C)C)[C@H]2O)[C@@]2(C)C[C@@H](C)C(=NC(C)=O)[C@H](C)[C@@H](OC/C(=N\OCc3ccc(-c4cccc(N)n4)s3)CO2)[C@]1(C)O | 49619 (erythromycin A-susceptible) | MIC | <0.06 µg/mL
CC[C@H]1OC(=O)[C@H](C)C(=O)[C@H](C)[C@@H](O[C@@H]2O[C@H](C)C[C@H](N(C)C)[C@H]2O)[C@@]2(C)C[C@@H](C)C(=NC(C)=O)[C@H](C)C(OC/C(=C\C#Cc3ccc(N)cc3)CO2)[C@]1(C)O | 49619 (erythromycin-susceptible) | MIC | <0.06 µg/mL
CC[C@H]1OC(=O)[C@H](C)C(=O)[C@H](C)[C@@H](O[C@@H]2O[C@H](C)C[C@H](N(C)C)[C@H]2O)[C@@]2(C)C[C@@H](C)C(=NC(C)=O)[C@H](C)[C@@H](OC/C(=N\OCc3cccc(N)n3)CO2)[C@]1(C)O | 700906 (erythromycin-resistant-ERM) | MIC | 0.13 µg/mL
CC[C@H]1OC(=O)[C@H](C)C(=O)[C@H](C)[C@@H](O[C@@H]2O[C@H](C)C[C@H](N(C)C)[C@H]2O)[C@@]2(C)C[C@@H](C)/C(=N\C(=O)OC)[C@H](C)C(OC/C(=C\C=C\c3ccccc3)CO2)[C@]1(C)O | 700906 (erythromycin-resistant-ERM) | MIC | 4 µg/mL
C[C@H]1NCc2cc(-c3c(F)cc4c(=O)c(C(=O)O)cn(C5CC5)c4c3OC(F)F)ccc21 | R6-C11 | MIC | 0.03 µg/mL
CC[C@H]1OC(=O)[C@H](C)C(=O)[C@H](C)[C@@H](O[C@@H]2O[C@H](C)C[C@H](N(C)C)[C@H]2O)[C@@]2(C)C[C@@H](C)C(=NC(C)=O)[C@H](C)C(OC/C(=C\c3ccccc3)CO2)[C@]1(C)O | 700906 (erythromycin-resistant-ERM) | MIC | 32 µg/mL
CC[C@H]1OC(=O)[C@H](C)C(=O)[C@H](C)[C@@H](O[C@@H]2O[C@H](C)C[C@H](N(C)C)[C@H]2O)[C@@]2(C)C[C@@H](C)C(=NC(C)=O)[C@H](C)[C@@H](OC/C(=N\OCCCc3ccccc3)CO2)[C@]1(C)O | 700906 (erythromycin-resistant-ERM) | MIC | 0.5 µg/mL
CC[C@H]1OC(=O)[C@H](C)C(=O)[C@H](C)[C@@H](O[C@@H]2O[C@H](C)C[C@H](N(C)C)[C@H]2O)[C@@]2(C)C[C@@H](C)C(=NC(C)=O)[C@H](C)C(OC/C(=C\C=C\c3ccc(OC)cc3)CO2)[C@]1(C)O | 49619 (erythromycin-susceptible) | MIC | 0.125 µg/mL
CC[C@H]1OC(=O)[C@@](C)(F)C(=O)[C@H](C)[C@@H](O[C@@H]2O[C@H](C)C[C@H](N(C)C)[C@H]2O)[C@@]2(C)C[C@@H](C)C(=NC(C)=O)[C@H](C)[C@@H](OC/C(=N\OCc3ccc(-c4nccs4)nc3)CO2)[C@]1(C)O | 700906 (erythromycin A-resistant) | MIC | <0.06 µg/mL
CC[C@H]1OC(=O)[C@H](C)C(=O)[C@H](C)[C@@H](O[C@@H]2O[C@H](C)C[C@H](N(C)C)[C@H]2O)[C@@]2(C)C[C@@H](C)C(=NC(C)=O)[C@H](C)C(OC/C=C/CO2)[C@]1(C)O | 700906 (erythromycin-resistant-ERM) | MIC | >64 µg/mL
CC[C@H]1OC(=O)[C@H](C)C(=O)[C@H](C)[C@@H](O[C@@H]2O[C@H](C)C[C@H](N(C)C)[C@H]2O)[C@@]2(C)C[C@@H](C)C(=NC(C)=O)[C@H](C)[C@@H](OC/C(=N\OCc3ccc(-c4cccc(N)n4)s3)CO2)[C@]1(C)O | 7701 (erythromycin A-resistant) | MIC | 0.03 µg/mL
CC[C@H]1OC(=O)[C@H](C)C(=O)[C@H](C)[C@@H](O[C@@H]2O[C@H](C)C[C@H](N(C)C)[C@H]2O)[C@@]2(C)C[C@@H](C)C(=NC(C)=O)[C@H](C)[C@@H](OC/C(=N\Oc3ccc(-n4cccn4)nc3)CO2)[C@]1(C)O | 49619 (erythromycin-susceptible) | MIC | <0.06 µg/mL
CC[C@H]1OC(=O)[C@@](C)(F)C(=O)[C@H](C)[C@@H](O[C@@H]2O[C@H](C)C[C@H](N(C)C)[C@H]2O)[C@@]2(C)C[C@@H](C)C(=NC(C)=O)[C@H](C)[C@@H](OC/C(=N\OCC#Cc3cccc(N)n3)CO2)[C@]1(C)O | 7701 (erythromycin A-resistant) | MIC | 0.13 µg/mL
NC1CCN(c2c(F)cc3c(=O)c(C(=O)O)cn(C4CC4)c3c2Cl)C1 | R6-C11 | MIC | 0.06 µg/mL
CC[C@H]1OC(=O)[C@@](C)(F)C(=O)[C@H](C)[C@@H](O[C@@H]2O[C@H](C)C[C@H](N(C)C)[C@H]2O)[C@@]2(C)C[C@@H](C)C(=NC(C)=O)[C@H](C)[C@@H](OC/C(=N\OCc3ccc(-c4ncccn4)s3)CO2)[C@]1(C)O | 49619 (erythromycin A-susceptible) | MIC | <0.06 µg/mL
C[C@H]1NCc2cc(-c3ccc4c(=O)c(C(=O)O)cn(C5CC5)c4c3OC(F)F)ccc21 | R6-C11 | MIC | 0.06 µg/mL

Again, the opening 4 rows:

compound	strain or isolate	endpoint	value
CC[C@H]1OC(=O)[C@H](C)C(=O)[C@H](C)[C@@H](O[C@@H]2O[C@H](C)C[C@H](N(C)C)[C@H]2O)[C@](C)(OC)C[C@@H](C)C(=O)[C@H](C)[C@H]2N(CCCCn3cnc(-c4cccnc4)c3)C(=O)O[C@]12C	49619 (erythromycin A-susceptible)	MIC	0.06 µg/mL
CO/N=C1\CN(c2nc3c(cc2F)c(=O)c(C(=O)O)cn3C2CC2)CC1CN	37 isolates erythromycin-resistant	MIC90	0.063 µg/mL
CC[C@H]1OC(=O)[C@H](C)C(=O)[C@H](C)[C@@H](O[C@@H]2O[C@H](C)C[C@H](N(C)C)[C@H]2O)[C@@]2(C)C[C@@H](C)C(=NC(C)=O)[C@H](C)[C@@H](OC/C(=N\OCc3ccc(C(N)=O)cc3)CO2)[C@]1(C)O	700906 (erythromycin-resistant-ERM)	MIC	0.25 µg/mL
COc1c(N2CCNC(C)C2)ccc2c(=O)c(C(=O)O)cn(C3CC3)c12	R6	MIC	4 µg/mL